# Assay results: US20220081444A1, “6,7-DIHYDRO-4H-PYRAZOLO[1,5-A]PYRAZINE INDOLE-2-CARBOXAMIDES ACTIVE AGAINST THE HEPATITIS B VIRUS (HBV)” (AiCuris GmbH & Co. KG, priority 2018, published 2022)
# Biological target: C-terminal truncated core protein (HBV core protein) (UniProt P03146, C48A/C61A/C107A, species not given)
# Conditions: read-out: Assembly Activity (IC50); BODIPY-FL labelled core protein, assembly started with NaCl, read after 6 min
substance,measurement,value
"3-yl)methyl]-4H,5H, 6H,7H-pyrazolo[1,5-a]pyrazin-2-amine [Example 25]",IC50,< 5 µM
